# Reference: patent US20140288040A1, “SUBSTITUTED BENZYLAMINE COMPOUNDS, THEIR USE IN MEDICINE, AND IN PARTICULAR THE TREATMENT OF HEPATITIS C VIRUS (HCV) INFECTION” (ASTEX THERAPEUTICS LIMITED, priority 2011, published 2014)
# Amino acid sequences for entries named in this document (tags omitted). Residues count along the entry.
# UniProt P26663, 1027-1657 limits assumed: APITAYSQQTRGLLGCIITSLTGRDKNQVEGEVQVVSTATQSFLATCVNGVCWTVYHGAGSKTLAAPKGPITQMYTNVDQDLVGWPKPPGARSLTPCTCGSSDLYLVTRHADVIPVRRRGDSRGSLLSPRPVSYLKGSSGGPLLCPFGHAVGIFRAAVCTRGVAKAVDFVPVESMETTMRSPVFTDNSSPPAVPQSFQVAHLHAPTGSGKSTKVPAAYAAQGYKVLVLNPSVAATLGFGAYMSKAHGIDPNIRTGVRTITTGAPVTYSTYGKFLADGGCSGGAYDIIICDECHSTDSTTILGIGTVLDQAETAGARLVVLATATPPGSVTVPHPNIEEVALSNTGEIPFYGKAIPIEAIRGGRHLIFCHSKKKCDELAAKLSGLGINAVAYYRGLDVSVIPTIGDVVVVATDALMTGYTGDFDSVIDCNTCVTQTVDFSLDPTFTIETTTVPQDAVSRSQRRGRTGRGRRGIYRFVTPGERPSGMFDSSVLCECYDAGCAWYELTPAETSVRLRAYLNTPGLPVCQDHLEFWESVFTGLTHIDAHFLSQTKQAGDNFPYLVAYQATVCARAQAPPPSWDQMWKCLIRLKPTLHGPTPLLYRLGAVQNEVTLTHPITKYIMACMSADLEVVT
# UniProt P26663, 1658-1711 partner limits assumed: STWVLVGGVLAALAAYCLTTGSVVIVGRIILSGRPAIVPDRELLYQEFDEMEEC
# Biological target: HCV NS3 protease (full length NS34a) (Hepatitis C virus genotype 1b, UniProt P26663)
# Experiment: HCV NS3 protease assay (FRET, full length NS34a)
# Assay type: biochemical
# Settings: read-out: Activity IC50; protease activity of full length NS34a, FRET peptide substrate; tested form: HCl
smiles,measurement,value
C#Cc1ccc(Oc2c(Cl)ccc([C@H](N)CC)c2F)cc1,IC50,610 nM
